Laboratory results reported in paper PMC6021681, “Characterization of the Anti-Hepatitis C Virus Activity of New Nonpeptidic Small-Molecule Cyclophilin Inhibitors with the Potential for Broad Anti-Flaviviridae Activity” (Antimicrobial Agents and Chemotherapy, 2018).

Assays:
Format in all cases: cell-based, hepatitis C virus
Conditions in all cases: EC50 relative to wild type
[1] = test system: genotype 1b HCV-SGR D320E
Experimental: (§1) Candidate resistance-associated substitutions (RASs) were introduced into a wild-type genotype 1b HCV-SGR containing the luciferase reporter gene by means of site-directed mutagenesis (QuikChange II XL site-directed mutagenesis kit; Agilent Technologies, Santa Clara, CA, USA). […] The replication capacity of the RAS-containing HCV-SGR was assessed by comparing luciferase activities at 4 h and 96 h posttransfection and expressed as a percentage of the wild-type replication capacity.

[2] = test system: genotype 1b HCV-SGR E442G
Experimental: as §1

[3] = test system: genotype 1b HCV-SGR I133V
Experimental: as §1

[4] = test system: genotype 1b HCV-SGR K308I
Experimental: as §1

[5] = test system: genotype 1b HCV-SGR L303P
Experimental: as §1

[6] = test system: genotype 1b HCV-SGR R304W
Experimental: as §1

[7] = test system: genotype 1b HCV-SGR Y321H
Experimental: as §1

[8] = test system: genotype 1b HCV-SGR(L31V/Y93H)
Source text: . After linearization with ScaI and in vitro transcription, the genotype 1b HCV-SGR was transfected into Huh7.5 cells.

SMILES: C/C=C/C[C@@H](C)[C@@H](O)[C@H]1C(=O)N[C@@H](CC)C(=O)N(C)[C@H](C)C(=O)N(CC)[C@@H](C(C)C)C(=O)N[C@@H](C(C)C)C(=O)N(C)[C@@H](CC(C)C)C(=O)N[C@@H](C)C(=O)N[C@H](C)C(=O)N(C)[C@@H](CC(C)C)C(=O)N(C)[C@@H](CC(C)C)C(=O)N(C)[C@@H](C(C)C)C(=O)N1C [ALV, Alisporivir, reference compound]
- Fold change, D320E [1]: 4.4
- Fold change, E442G [2]: 1.1
- Fold change, I133V [3]: 0.9
- Fold change, K308I [4]: 1.3
- Fold change, L303P [5]: 1.3
- Fold change, R304W [6]: 1.1
- Fold change, Y321H [7]: 2.2
- Fold change, L31V/Y93H [8]: 0.5
